Anti-infective test results gathered from many reports (values: NIAID ChemDB through PubChem).

Shared fields: whole-cell or culture tests; organism: HIV-1; read by: p24; measure: EC50

Two numbers with a dash give a range or band.

| structure | changes | cell line | strain | result |
|---|---|---|---|---|
| O=C1c2c(O)c(=O)n(C34CC5CC(CC(C5)C3)C4)c(=O)n2CCN1Cc1ccc(F)cc1 | - | MT-4 | - | <10 µM |
| COc1ccc(S(=O)(=O)NC(Cc2ccccc2)C(F)(F)C(=O)[C@@H](Cc2ccccc2)NC(=O)OC2COCOC2)cc1 | - | CEM | IIIB | <1 µM |
| CCN1c2ncc(CCOc3ccc(-c4cccc(C(=O)O)c4)cc3C)cc2C(=O)N(C)c2cccnc21 | RT-K103N Y181C | C8166 | - | 0.01–0.05 µM |
| COc1ccc(S(=O)(=O)N(CC(C)C)CC(O)CCN2CCN(Cc3cccnc3)C[C@H]2C(=O)NC(C)(C)C)cc1 | - | CEM | IIIB | <1 µM |
| Clc1cc(CN2CCCNCCNCCCNCC2)cc(Cl)n1 | - | PBMC | ADA R5 | 6 µM |
| CCN1c2ncc(CCOc3ccc(-c4ccc(C(=O)O)cc4)cc3C)cc2C(=O)N(C)c2cccnc21 | - | C8166 | IIIB | <0.01 µM |
| Cc1cc(CNC(=O)c2nc3n(c(=O)c2O)CCNCC3N(C)C(=O)C(=O)N(C)C)ccc1F | - | MT-4 | - | <1 µM |
| Cn1cc(C(=O)O)c(=O)c2cc(F)c(N3CC=C(c4ccccc4)CC3)c(C(F)(F)F)c21 | - | PBMC | BaL | ~0.108 µM |
| COc1ccc(-c2cnc3c(N4CC[C@@H](NC(C)=O)C4)cc(C)nn23)cc1OC | - | H9 | - | 0.9 µM |
| CC(C)C1=C2[C@H]3CC[C@@H]4[C@@]5(C)CC[C@H](OC(=O)C6C[C@@H](C(=O)O)C6(C)C)C(C)(C)[C@@H]5CC[C@@]4(C)[C@]3(C)CC[C@@]2(NC(=O)C(C)(C)NC(=O)CN2CCS(=O)(=O)CC2)CC1=O | V7A | MT-4 | NL4-3 | 0.01001–0.05 µM |
| Nc1ccn([C@@H]2CS[C@H](CO)O2)c(=O)n1 | - | OM-10.1 | - | >20 µM |
| CC(C)NC(=S)N(C)CCC1CN(Cc2ccc(F)cc2)C(=O)c2c(O)c(=O)n(C(C)C)c(=O)n21 | - | MT-4 | - | <10 µM |
| CCO[C@@H]1Cc2cc(C(F)(F)F)ccc2C1N1CCN(C2(C)CCN(C(=O)c3c(C)ncnc3C)CC2)C[C@@H]1C | - | PBMC | 92/BR/003 | 0.001 µM |
| O=C1c2c(O)c(=O)n(C3Cc4ccccc4C3)c(=O)n2CCN1Cc1ccc(F)cc1 | - | MT-4 | - | <10 µM |
| COc1ccc(S(=O)(=O)N(CC(C)C)C[C@@H](O)CC(=O)N2CCN(Cc3cccnc3)C[C@H]2C(=O)NC(C)(C)C)cc1 | - | CEM | IIIB | <1 µM |
| CC(=O)N1CCC(C(=O)N(CCCN2CCC(Cc3ccc(C(N)=O)cc3)CC2)c2ccc(C)c(Cl)c2)CC1 | - | PBMC | R5-18 Clinical isolate | 0.00226 µM |
| CC(C)C1=C2[C@H]3CC[C@@H]4[C@@]5(C)CC[C@H](OC(=O)C6C[C@@H](C(=O)O)C6(C)C)C(C)(C)[C@@H]5CC[C@@]4(C)[C@]3(C)CC[C@@]2(NC(=O)C(C)(C)NC(=O)c2cnn3cccnc23)CC1=O | V7A | MT-4 | NL4-3 | 0.01001–0.05 µM |
| CC(=O)N[C@@H]1CCN(c2cc(Cl)nn3c(-c4ccc(F)cc4)c(C)nc23)C1 | - | H9 | - | >100 µM |
| Cc1cccc(C)c1CNC(=O)[C@H]1N(C(=O)[C@@H](O)C[C@@H](Cc2ccccc2)C(=O)N[C@H]2c3ccccc3OC[C@H]2O)COC12CCCC2 | - | MT-4 | NL4-3 | <0.008 µM |
| COc1ccc(-c2c(C)nc3c(N4CC[C@@H](F)C4)cc(C)nn23)cc1OC | - | H9 | - | 0.7 µM |
| CCN1c2ncc(CCOc3ccc(-c4ccncc4)cc3C)cc2C(=O)N(C)c2cccnc21 | RT-K103N Y181C | C8166 | - | <0.01 µM |
| COc1ccc(S(=O)(=O)N(CC(C)C)CC(F)(F)C(=O)[C@@H](Cc2ccccc2)NC(=O)O[C@H]2CCOC2)cc1 | - | CEM | IIIB | <1 µM |
| CCN1c2ncc(CCOc3ccc(-c4ccc(C)[n+]([O-])c4)cc3C)cc2C(=O)N(C)c2cccnc21 | - | C8166 | IIIB | <0.01 µM |
| CC(=O)N[C@@H]1CCN(c2cc(C)nn3c(-c4cccs4)c(C)nc23)C1 | - | H9 | - | 0.3 µM |
| Cc1ccc(-c2ccc3c(c2)C=C(C(=O)Nc2ccc(C[N+](C)(C)C4CCOCC4)cc2)CCC3)cc1 | - | PBMC | COT2 CLADE C | <1 µM |
| CC(C)C1=C2[C@H]3CC[C@@H]4[C@@]5(C)CC[C@H](OC(=O)C6C[C@@H](C(=O)O)C6(C)C)C(C)(C)[C@@H]5CC[C@@]4(C)[C@]3(C)CC[C@@]2(NC(=O)C(C)(C)NC(=O)c2ccc3ccccc3n2)CC1=O | V7A | MT-4 | NL4-3 | 0.01001–0.05 µM |
| CC(C)CN(C(=O)C(=O)C(=O)C(Cc1ccccc1)NC(=O)OC1COCOC1)S(=O)(=O)c1ccccc1 | - | CEM | IIIB | <1 µM |
| CS(=O)(=O)N1CCc2nc(C(=O)NCc3ccc(F)cc3)c(O)c(=O)n2CC1 | - | MT-4 | - | <50 µM |
| COc1ccc(-c2c(C)nc3c(N4CCC(F)(F)C4)cc(C)nn23)cc1OC | - | H9 | - | 1 µM |
| CNC(=O)c1cc(F)ccc1CNC(=O)c1nc2n(c(=O)c1O)CCN(C)C2(C)C | - | MT-4 | - | <1 µM |
| CC(=O)N[C@@H]1CCN(c2cc(C)nn3c(-c4ccc(O)cc4)c(C)nc23)C1 | - | H9 | - | <1 µM |
| CCN1c2ncc(CCOc3ccc(C(=O)Nc4ccccc4C(=O)O)cc3C)cc2C(=O)N(C)c2cccnc21 | - | C8166 | IIIB | 0.01–0.05 µM |
| O=C(N[C@H]1c2ccccc2OC[C@H]1O)[C@H](Cc1ccccc1)C[C@H](O)C(=O)N1COC2(CCCC2)[C@H]1C(=O)NCc1c(Cl)cccc1Cl | - | MT-4 | NL4-3 | <0.0625 µM |
| O=C1c2c(O)c(=O)n(CC3(N4CCOCC4)CCCC3)c(=O)n2CCN1Cc1ccc(F)cc1 | - | MT-4 | - | <10 µM |
| CC(C)N1CCn2c(nc(C(=O)NCc3ccc(F)cc3)c(O)c2=O)C(N(C)C(=O)C(=O)N(C)C)C1 | - | MT-4 | - | <1 µM |
| CCN1c2ncc(CCOc3ccc(-c4cocn4)cc3C)cc2C(=O)N(C)c2cccnc21 | RT-K103N Y181C | C8166 | - | <0.01 µM |
| Cc1cccc(C)c1CNC(=O)[C@@H]1CCN1C(=O)[C@@H](O)C[C@@H](Cc1ccccc1)C(=O)N[C@H]1c2ccccc2OC[C@H]1O | - | MT-4 | NL4-3 | <1 µM |
| Cc1occc1C(=O)NC(C)(C)C(=O)N[C@@]12CC[C@]3(C)[C@H](CC[C@@H]4[C@@]5(C)CC[C@H](OC(=O)C6C[C@@H](C(=O)O)C6(C)C)C(C)(C)[C@@H]5CC[C@]43C)C1=C(C(C)C)C(=O)C2 | V7A | MT-4 | NL4-3 | >0.05 µM |
| COc1ccc(S(=O)(=O)N(CC(C)C)C[C@@H](O)CCN(CC2CCCC2)S(=O)(=O)Cc2cnco2)cc1 | - | CEM | IIIB | <1 µM |
| CN(C)CC1c2nc(C(=O)NCc3ccc(F)cc3)c(O)c(=O)n2CCN1Cc1cocn1 | - | MT-4 | - | 1–10 µM |
| CC(=O)N[C@@H]1CCN(c2cc(C)nn3c(-c4ccc5c(c4)OCO5)c(C)nc23)C1 | - | H9 | - | <1 µM |
| Cn1ccc(CN2CCn3c(nc(C(=O)NCc4ccc(F)cc4)c(O)c3=O)C2(C)C)n1 | - | MT-4 | - | <1 µM |
| CC(C)n1c(=O)c(O)c2n(c1=O)CCN(Cc1ccc(F)c(Cl)c1)C2=O | - | MT-4 | - | <10 µM |

Repeating the final 4 entries:

CN(C)CC1c2nc(C(=O)NCc3ccc(F)cc3)c(O)c(=O)n2CCN1Cc1cocn1 ; cell line: MT-4 ; result: 1–10 µM
CC(=O)N[C@@H]1CCN(c2cc(C)nn3c(-c4ccc5c(c4)OCO5)c(C)nc23)C1 ; cell line: H9 ; result: <1 µM
Cn1ccc(CN2CCn3c(nc(C(=O)NCc4ccc(F)cc4)c(O)c3=O)C2(C)C)n1 ; cell line: MT-4 ; result: <1 µM
CC(C)n1c(=O)c(O)c2n(c1=O)CCN(Cc1ccc(F)c(Cl)c1)C2=O ; cell line: MT-4 ; result: <10 µM

ECn: concentration that inhibits the pathogen or its effect by n%. An empty or dashed field is not shown. Lines come from different laboratories, so protocols vary.